Results of unrelated studies side by side (data: NIAID ChemDB).

All rows: growth or infection tests; organism: Candida albicans

Conditions beyond the fields shown may differ between rows.

structure | strain or isolate | method | endpoint | result
CCC(C)CC(C)CCCCCCCCC(=O)N[C@H]1C[C@@H](O)[C@H](NCCN)NC(=O)[C@@H]2[C@@H](O)CCN2C(=O)[C@H]([C@H](O)CCN)NC(=O)[C@H]([C@H](O)[C@@H](O)c2ccc(O)cc2)NC(=O)[C@@H]2C[C@@H](O)CN2C(=O)[C@H]([C@@H](C)O)NC1=O | C693 | broth dilution | MIC | 0.06 µg/mL
c1csc(C(c2ccc3ccccc3c2)n2ccnc2)c1 | 23 strains |  | Mean MIC | 8.56 µg/mL
Cc1onc(-c2ccc(F)cc2)c1C=O |  |  | MIC | >50 µg/mL
Clc1ccc(COc2ccc(C(c3ccc(-c4ccccc4)cc3)n3ccnc3)cc2)cc1.O=[N+]([O-])O | 17 strains |  | Mean MIC | ≥256 µg/mL
COC(=O)/C=C/c1ccc(OC)cc1 | ATCC 10231 | broth dilution / resazurin | MIC | 500 µg/mL
CCCCCCCCCCCCCCCCCC(=O)NC1CC(O)C(O)NC(=O)C2C(O)C(C)CN2C(=O)C(C(C)O)NC(=O)C(C(O)C(O)c2ccc(O)cc2)NC(=O)C2CC(O)CN2C(=O)C(C(C)O)NC1=O | MY1783 |  | MIC | 2 µg/mL
c1ccc2c(C(c3ccc(-n4cccc4)cc3)n3ccnc3)cccc2c1 | 23 strains |  | Mean MIC | 2.76 µg/mL
O=Cc1cc(-c2ccc(Cl)cc2Cl)on1 |  |  | MIC | 12.5 µg/mL
c1ccc(C(c2ccc3ccccc3c2)n2ccnc2)cc1 | 23 strains |  | MIC90 | 8 µg/mL
O=C(/C=C/c1ccc(O)cc1O)c1ccccc1 | SDAU4 |  | MIC | 50 µg/mL
C=CCc1ccc(OC)c(OC)c1 | 3034 | turbidity | MIC90 | 350 µg/mL
COc1ccc(-c2n[nH]c(COc3nc(C(F)(F)F)nc4ccccc34)n2)cc1 | MTCC 227 |  | MIC100 | 12.5 µg/mL
O=S(=O)(c1ccccc1)n1cnc(-c2cncc(Cl)n2)n1 |  | broth dilution | MIC | >256 µg/mL
Cc1nc(OCc2nc(-c3ccc(F)cc3)n[nH]2)c2ccccc2n1 | MTCC 277 |  | MIC100 | 6.25 µg/mL
Cc1c(Sc2ccccc2)[n+](=O)c2cc(C(F)(F)F)ccc2n1[O-] | Clinical isolate 18 |  | MIC | 15.6 µg/mL
Fc1ccc(-c2n[nH]c(COc3nc(C(F)(F)F)nc4ccccc34)n2)cc1 | MTCC 227 |  | MIC100 | 6.25 µg/mL
Cc1ccc(-c2cc(C=O)no2)cc1 |  |  | MIC | 50 µg/mL
Clc1ccc(C(c2ccc3ccccc3c2)n2ccnc2)cc1 | 23 strains |  | Mean MIC | 3.9 µg/mL
CC(=O)OCC1C=C(c2cccc(Cl)c2)C(=O)O1 | 16 isolates fluconazole-susceptible |  | MIC90 | 2 µg/mL
Cc1ccc(-c2c3c(N)c4c(nc3nc3c2c(C)nn3-c2ccccc2)CCCC4)cc1 | CCC 129 | broth dilution / absorbance | MIC50 | 31.2 µg/mL
Cc1cc(-c2cc(C)on2)n(C)n1 |  |  | MIC | >200 µM
O=S1N=C(c2cnccn2)NN1c1ccccc1 |  | broth dilution | MIC | 32 µg/mL
O=[n+]1c(Sc2ccccc2)c(CBr)n([O-])c2ccccc21 | Clinical isolate 3 |  | MIC | 62.5 µg/mL
Cc1ccc(O)c(C(=O)/C=C/c2ccc(O)cc2O)c1 | SDAU3 |  | MIC | 50 µg/mL
CCOC(=O)c1c(C)[nH]c(O)c1/C=N/NC(=O)c1ccncc1 |  |  | MIC | >25 µg/mL
Cc1nnsc1C(=O)NNC(=S)Nc1ccc(F)cc1 | ATCC 10231 | agar | MIC | >400 µg/mL
CCn1nc(C)cc1-c1cc(C)on1 |  |  | MFC | >200 µM
Cc1onc(-c2ccc(Cl)cc2Cl)c1C=O |  |  | MIC | 50 µg/mL
C[C@H]1[C@H](O)[C@@H](C)/C=C/C=C/C=C/C=C/C=C/C=C/C=C/[C@H](O[C@@H]2O[C@H](C)[C@@H](O)[C@H](N)[C@@H]2O)C[C@@H]2O[C@](O)(C[C@@H](O)C[C@@H](O)CC[C@H](O)[C@@H](O)C[C@@H](O)CC(=O)O[C@H]1C)C[C@H](O)[C@H]2C(=O)O | SGY-243 |  | MIC | 0.015 µg/mL
Cc1nnsc1C(=O)NNC(=S)Nc1ccccc1Br | ATCC 90028 | agar | MIC | 200 µg/mL
Fc1ccc(COc2ccc(C(c3nccc4ccccc34)n3ccnc3)cc2)cc1 | 16 strains |  | MIC90 | ≥256 µg/mL
Cc1nc(-c2cnccn2)[nH][n+]1C |  | broth dilution | MIC | >256 µg/mL
CCOC(=O)C1=C(C)NC(=O)/C1=C\c1c(O)[nH]c(=O)[nH]c1=O |  |  | MIC | >100 µg/mL
CN[C@@H]1[C@H](O[C@@H]2O[C@H](CO)[C@@H](O)[C@H](S(=O)(=O)O)[C@H]2O)[C@@H](O)[C@H](O[C@H]2c3cc(C)c(C(=O)N[C@H](CO)C(=O)O)c(O)c3-c3c(cc4c(c3O)C(=O)c3cc(OC)cc(O)c3C4=O)[C@@H]2O)O[C@@H]1C | ATCC 32354 |  | MIC | 12.5 µg/mL
Cc1cc(-c2nn(CCO)c(C)c2N=O)no1 |  |  | MFC | >200 µM
c1csc(C(c2cccc3ccccc23)n2ccnc2)c1 | 23 strains |  | MIC90 | 32 µg/mL
Cc1cc(-c2cc(C)on2)n(CCO)n1 |  |  | MFC | >200 µM
C[C@H]1[C@H](O)[C@@H](C)/C=C/C=C/C=C/C=C/C=C/C=C/C=C/[C@H](O[C@@H]2O[C@H](C)[C@@H](O)[C@H](N)[C@@H]2O)C[C@@H]2O[C@](O)(C[C@@H](O)C[C@@H](O)CC[C@H](O)[C@@H](O)C[C@@H](O)CC(=O)O[C@H]1C)C[C@H](O)[C@H]2C(=O)O | 16 isolates fluconazole-susceptible |  | MIC90 | 0.25 µg/mL
Cc1nc(OCc2nc(-c3cccs3)n[nH]2)c2ccccc2n1 | MTCC 227 |  | MIC100 | 6.25 µg/mL
CCC(C)n1ncn(-c2ccc(N3CCN(c4ccc(OC[C@H]5CO[C@](Cn6cncn6)(c6ccc(Cl)cc6Cl)O5)cc4)CC3)cc2)c1=O | Fluconazole-resistant 4 isolates pooled |  | MFC50 | >8 µg/mL
COc1ccc(C(c2cccc3ccccc23)n2ccnc2)cc1 | 23 strains |  | Mean MIC | 18.28 µg/mL
O=Cc1cc(-c2ccccc2Cl)on1 |  |  | MIC | 25 µg/mL
Clc1ccccc1C(c1nccc2ccccc12)n1ccnc1 | 44 strains |  | Mean MIC | 126.4 µg/mL
O=C(NNC(=S)Nc1ccc(F)cc1)c1cccs1 | ATCC 10231 | agar | MIC | 400 µg/mL
Cc1ccc(C(c2ccc3ccccc3c2)n2ccnc2)cc1 | 23 strains |  | MIC90 | 8 µg/mL
Cc1c(S(=O)(=O)c2ccccc2)[n+](=O)c2cc(Cl)ccc2n1[O-] | Clinical isolate 5 |  | MIC | 31.25 µg/mL
C[C@@H](c1nc(-c2ccc(C#N)cc2)cs1)[C@](O)(Cn1cnnc1)c1ccc(F)cc1F | 660 isolates |  | MIC50 | 0.008 µg/mL
Cc1ccc(-c2c3c(N)c4c(nc3nc3c2c(C)nn3-c2ccccc2)CCCCC4)cc1 | ATCC 10231 | broth dilution / absorbance | MIC100 | 125 µg/mL
CC(C)S(=O)(=O)N1CCN(c2cnn(-c3cc(F)cc(F)c3)c(=O)c2OC2CCC(F)C2)CC1 | C-43 | broth dilution | MIC | 0.125 µg/mL
Clc1ccc(COc2ccc(C(c3cccc4ccccc34)n3ccnc3)cc2)cc1.O=[N+]([O-])O | 17 strains |  | Mean MIC | ≥256 µg/mL
CCCC(O)C/C=C\C=C\C(=O)OC[C@H]1O[C@@H](O[C@@H]2[C@H](OC(=O)/C=C/C=C/CC(O)/C(C)=C/C=C/CCC(C)CC)[C@@H](O)[C@]3(OCc4cc(O)cc(O)c43)O[C@@H]2CO)[C@H](O)[C@@H](O)[C@H]1O | MY1783 |  | MIC | 2 µg/mL
CCOC(=O)c1c(C)[nH]c(O)c1C=C(C(=O)O)C(=O)O |  |  | MIC | >100 µg/mL
CCn1nc(C)c(N=O)c1-c1cc(C)on1 |  |  | MFC | 19 µM
FC(F)(F)c1nc(OCc2nc(-c3ccc(Br)cc3)n[nH]2)c2ccccc2n1 | MTCC 227 |  | MIC100 | 6.25 µg/mL
Clc1ccccc1C(c1ccccc1)(c1ccccc1)n1ccnc1 | 16 strains |  | MIC90 | 1 µg/mL
CC(C)CC1NC(=O)CC(CCCCCCCCC(C)O)OC(=O)C(CC(C)C)NC(=O)C(CC(C)C)NC(=O)C(CC(C)C)NC(=O)C(C(C)C)NC(=O)C(CC(=O)O)NC(=O)C(CC(C)C)NC1=O | ATCC 10231 | visual reading | MFC | 2 µg/mL
COc1ccc(-c2n[nH]c(COc3nc(C)nc4ccccc34)n2)cc1 | MTCC 227 |  | MIC100 | 6.25 µg/mL
Cc1ccc(-c2c3c(N)c4c(nc3nc3c2c(C)nn3-c2ccccc2)CCC4)cc1 | CCC 125 | broth dilution / absorbance | MIC50 | 62.5 µg/mL
NC(=NNc1ccccc1)c1cncc(Cl)n1 |  | broth dilution | MIC | 32 µg/mL
Clc1ccc(C(Cn2ccnc2)OCc2csc3c(Cl)cccc23)c(Cl)c1 | 16 strains |  | MIC50 | 0.25 µg/mL
Cc1c(S(=O)(=O)c2ccccc2)[n+](=O)c2ccccc2n1[O-] | Clinical isolate 11 |  | MIC | 31.25 µg/mL
CCC(C)n1ncn(-c2ccc(N3CCN(c4ccc(OC[C@H]5CO[C@](Cn6cncn6)(c6ccc(Cl)cc6Cl)O5)cc4)CC3)cc2)c1=O | ATCC 90028 (azole-susceptible) |  | MIC90 | 0.0063 µg/mL
Cc1nn(-c2ccccc2)c2nc3nc4c(c(N)c3c(-c3ccc(Cl)cc3)c12)CCC4 | ATCC 10231 | broth dilution / absorbance | MIC80 | 250 µg/mL
O=C(Nc1nc2ccc(NC(=O)[C@@H]3CCC[C@H](NCc4ccc5ccccc5c4)C3)cc2s1)C1CCCC1 | TIMM 0171 |  | MIC | 0.78 µM
CSc1ccc(C(c2nccc3ccccc23)n2ccnc2)cc1.O=[N+]([O-])O | 44 strains |  | MIC90 | 256 µg/mL
Cc1nnsc1C(=O)NNC(=S)Nc1ccc([N+](=O)[O-])cc1 | ATCC 90028 | agar | MIC | 200 µg/mL

The last 9 rows once more:

{"structure": "Cc1ccc(-c2c3c(N)c4c(nc3nc3c2c(C)nn3-c2ccccc2)CCC4)cc1", "strain or isolate": "CCC 125", "method": "broth dilution / absorbance", "endpoint": "MIC50", "result": "62.5 µg/mL"}
{"structure": "NC(=NNc1ccccc1)c1cncc(Cl)n1", "method": "broth dilution", "endpoint": "MIC", "result": "32 µg/mL"}
{"structure": "Clc1ccc(C(Cn2ccnc2)OCc2csc3c(Cl)cccc23)c(Cl)c1", "strain or isolate": "16 strains", "endpoint": "MIC50", "result": "0.25 µg/mL"}
{"structure": "Cc1c(S(=O)(=O)c2ccccc2)[n+](=O)c2ccccc2n1[O-]", "strain or isolate": "Clinical isolate 11", "endpoint": "MIC", "result": "31.25 µg/mL"}
{"structure": "CCC(C)n1ncn(-c2ccc(N3CCN(c4ccc(OC[C@H]5CO[C@](Cn6cncn6)(c6ccc(Cl)cc6Cl)O5)cc4)CC3)cc2)c1=O", "strain or isolate": "ATCC 90028 (azole-susceptible)", "endpoint": "MIC90", "result": "0.0063 µg/mL"}
{"structure": "Cc1nn(-c2ccccc2)c2nc3nc4c(c(N)c3c(-c3ccc(Cl)cc3)c12)CCC4", "strain or isolate": "ATCC 10231", "method": "broth dilution / absorbance", "endpoint": "MIC80", "result": "250 µg/mL"}
{"structure": "O=C(Nc1nc2ccc(NC(=O)[C@@H]3CCC[C@H](NCc4ccc5ccccc5c4)C3)cc2s1)C1CCCC1", "strain or isolate": "TIMM 0171", "endpoint": "MIC", "result": "0.78 µM"}
{"structure": "CSc1ccc(C(c2nccc3ccccc23)n2ccnc2)cc1.O=[N+]([O-])O", "strain or isolate": "44 strains", "endpoint": "MIC90", "result": "256 µg/mL"}
{"structure": "Cc1nnsc1C(=O)NNC(=S)Nc1ccc([N+](=O)[O-])cc1", "strain or isolate": "ATCC 90028", "method": "agar", "endpoint": "MIC", "result": "200 µg/mL"}

An empty or dashed field is not shown. MIC50, MIC90 and the like: level of inhibition, or share of isolates inhibited.